Test results taken from publication PMC5515891 (Scientific Reports, 2017).

Protein sequences, listed by entry. Tags and fused reporters are not part of them. Residues count along the entry.
UniProt Q7DDI3, 20-272 limits assumed: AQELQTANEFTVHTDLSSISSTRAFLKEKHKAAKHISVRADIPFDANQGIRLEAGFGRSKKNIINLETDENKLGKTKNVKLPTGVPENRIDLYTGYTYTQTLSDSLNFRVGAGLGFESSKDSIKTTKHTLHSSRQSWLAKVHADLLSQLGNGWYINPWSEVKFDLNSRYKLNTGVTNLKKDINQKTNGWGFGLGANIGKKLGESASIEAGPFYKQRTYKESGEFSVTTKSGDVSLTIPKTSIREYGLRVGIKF

Biological target: Opc (Neisseria meningitidis, UniProt Q7DDI3)
Assay: isothermal titration calorimetry
Format: binding
Details: Opc+ outer membrane preparation (4 mg/ml, PBS) in cell, 100 µM glycan in syringe; Opc- preparation and PBS controls subtracted

Structure (SMILES): CC(=O)N[C@H]1[C@H]([C@H](O)[C@H](O)CO)O[C@@](O[C@H]2[C@@H](O)[C@@H](CO)O[C@@H](O[C@H]3[C@H](O[C@@H]4O[C@@H](C)[C@@H](O)[C@@H](O)[C@@H]4O)[C@@H](NC(C)=O)C(O)O[C@@H]3CO)[C@@H]2O)(C(=O)O)C[C@@H]1O (stereo partly shown)
- Kd: 593 nM
